The record followed here is patent US7495027B2, “3-aryl-4-hydroxyfuranone compounds and the human and animal health use thereof” (Wyeth, priority 2003, dated 2009).

Protein sequences, listed by entry. Tags and fused reporters are not part of them.
UniProt P17952, whole entry: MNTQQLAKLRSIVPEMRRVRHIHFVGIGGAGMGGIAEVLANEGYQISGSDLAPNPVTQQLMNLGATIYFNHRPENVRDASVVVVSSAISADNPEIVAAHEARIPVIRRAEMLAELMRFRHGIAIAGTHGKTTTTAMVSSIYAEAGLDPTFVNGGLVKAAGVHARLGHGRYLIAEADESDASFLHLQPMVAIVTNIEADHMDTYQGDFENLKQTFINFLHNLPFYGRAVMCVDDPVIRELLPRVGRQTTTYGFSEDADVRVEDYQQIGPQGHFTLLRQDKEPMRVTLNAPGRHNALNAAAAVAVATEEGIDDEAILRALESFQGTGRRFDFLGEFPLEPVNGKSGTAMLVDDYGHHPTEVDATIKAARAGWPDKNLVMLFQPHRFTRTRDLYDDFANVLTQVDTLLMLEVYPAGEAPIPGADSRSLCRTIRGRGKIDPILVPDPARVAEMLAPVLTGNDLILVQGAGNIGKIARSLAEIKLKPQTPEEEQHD
UniProt P0A749, whole entry: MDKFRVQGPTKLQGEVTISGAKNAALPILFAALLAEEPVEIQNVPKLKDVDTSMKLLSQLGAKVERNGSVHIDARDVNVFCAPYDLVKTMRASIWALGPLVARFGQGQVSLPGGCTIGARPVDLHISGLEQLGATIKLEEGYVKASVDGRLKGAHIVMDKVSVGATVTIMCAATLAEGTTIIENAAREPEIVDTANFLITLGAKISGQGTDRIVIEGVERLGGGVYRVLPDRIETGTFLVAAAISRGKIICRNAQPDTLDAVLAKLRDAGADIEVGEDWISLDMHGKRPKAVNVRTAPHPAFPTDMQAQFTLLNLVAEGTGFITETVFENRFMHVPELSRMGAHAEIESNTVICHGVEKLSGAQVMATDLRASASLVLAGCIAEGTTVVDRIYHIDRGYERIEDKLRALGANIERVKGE
UniProt P08373, whole entry: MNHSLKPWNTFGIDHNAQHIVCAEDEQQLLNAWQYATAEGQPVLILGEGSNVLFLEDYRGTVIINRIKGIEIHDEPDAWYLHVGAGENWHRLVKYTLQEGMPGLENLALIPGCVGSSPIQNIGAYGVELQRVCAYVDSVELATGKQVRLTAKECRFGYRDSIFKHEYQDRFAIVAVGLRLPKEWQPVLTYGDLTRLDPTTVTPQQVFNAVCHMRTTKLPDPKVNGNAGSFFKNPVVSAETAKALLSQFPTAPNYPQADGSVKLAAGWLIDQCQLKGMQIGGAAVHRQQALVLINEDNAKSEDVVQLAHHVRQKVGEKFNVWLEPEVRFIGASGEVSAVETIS
UniProt P14900, whole entry: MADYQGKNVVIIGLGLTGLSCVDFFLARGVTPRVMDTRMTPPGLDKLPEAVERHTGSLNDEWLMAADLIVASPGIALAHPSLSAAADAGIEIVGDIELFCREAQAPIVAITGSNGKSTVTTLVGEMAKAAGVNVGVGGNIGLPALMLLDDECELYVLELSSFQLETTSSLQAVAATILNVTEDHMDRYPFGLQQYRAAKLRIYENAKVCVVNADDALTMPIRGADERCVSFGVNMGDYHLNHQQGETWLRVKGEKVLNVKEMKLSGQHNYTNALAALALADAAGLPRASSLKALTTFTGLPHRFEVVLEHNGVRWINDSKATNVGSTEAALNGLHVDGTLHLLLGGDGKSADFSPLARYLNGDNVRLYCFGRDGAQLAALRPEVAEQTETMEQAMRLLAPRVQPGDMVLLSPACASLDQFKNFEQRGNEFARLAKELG

Test [1] deals with E. coli Uridine-diphosphate-N-acetvimuramoyl: L-alanine lipase, MurC (Escherichia coli, UniProt P17952). The experiment in a line: Inhibitory activity against MurC (E. coli). Conditions: (E) E. coli enzyme. The protocol: S. aureus and E. coli Uridine-diphosphate-N-acetvimuramoyl: L-alanine lipase, MurC
The buffer is prepared from aqueous reagents with the following final concentrations: 83 mM Tris/HCl (pH 8.0), 50 mM MgC12, and 2 mM ATP.
Preparation of Enzyme Solution:
A 1 mg/mL stock solution of MurC is prepared in a buffer consisting of 20 mM Tris/HCl (pH 8.5) with 2.5 μM BME. The stock solution is further diluted with the buffer to give a final enzyme concentration of 100 μg/mL for the E. coli stock solution and 70 μg/mL for the S. aureus stock solution.
Preparation of Test Compound Solutions:
All test solutions are prepared in DMSO as 10 mg/mL, then diluted with 50 mM Tris/HCl (pH 8.5) to 100 μg/mL.
Preparation of Stop Solution:
The stop solution is prepared by stirring 1 part 4.2% ammonium molydbate in 4N HCl with 2 parts 0.045% malachite green for 30 min.
In this evaluation, the inhibitory activity of a test compound against MurC, the enzyme which catalyzes the third step of bacterial cell wall bioxynthesis is determined. […] (Lanzetta et al., Analytical Biochemistry, 1979, 95) Optical density readings are taken at 660 nm using a Molecular Devices Spectra Max 250 with Soft Max software. […]
Using these values the IC50 is determined by linear regression analysis.

Test [2] relates to staphylococci. The test can be described thus: Minimum inhibitory concentration, microdilution broth method, staphylococci. The test is classed as cell-based. Conditions: Mueller-Hinton broth, 18-22 hours at 35° C. The protocol: (§1) Evaluation of the Minimum Inhibitory Concentration of Test Compounds Against A Variety of Bacterial Strains
(§2) In this evaluation the minimal inhibitory concentration (MIC) of test compounds against Gram positive and Gram negative bacteria is performed using the microdilution broth method as recommended by the National Committee for Clinical Laboratory Standards (Approved Standards M7-A5 2000). Mueller-Hinton broth is used for the enterobacteriaceae, staphylococci and enterococci. Streptococci are also tested in Mueller-Hinton broth supplemented with 5% horse blood (LHB). Test organisms include recent clinical isolates that are resistant to methicillin, penicillin and/or vancomycin. […]. The MIC is determined after incubation for 18-22 hours at 35° C. in ambient air.
A general note: In broth dilution the organism is exposed to a series of concentrations in liquid medium.

Test [3] concerns enterococci. The experiment in a line: Minimum inhibitory concentration, microdilution broth method, enterococci. It counts as cell-based. The settings on record: Mueller-Hinton broth, 18-22 hours at 35° C. The protocol: as §1, §2
Test [4] deals with Streptococci. The test can be described thus: Minimum inhibitory concentration, microdilution broth method, streptococci. The settings on record: Mueller-Hinton broth with 5% horse blood, 18-22 hours at 35° C. The test is classed as cell-based. How it is done:
as §1, §2

Test [5] has as its target E. coli UDP-N-acetylglucosamine enolpyruvoyl transferase, MurA (Escherichia coli, UniProt P0A749). The settings on record: (E) E. coli enzyme.
Test [6] deals with E. coli Enopyruvyl-UPD-N-acetylglucosamine reductase, Mur B (Escherichia coli, UniProt P08373). Conditions: (E) E. coli enzyme.
The target of test [7] is E. coli Uridine-diphosphate-N-acetylmuramoyl-L-alanine: D-glutamate liease, MurD (Escherichia coli, UniProt P14900). Conditions: (E) E. coli enzyme.

In brackets after ≈: the same amount, converted by molar mass. Some results are limits rather than exact numbers.

Take `O=C1OC(=Cc2cccc(C(F)(F)F)c2)C(O)=C1c1cccc2ccccc12`: the “MurC IC50” value in test [1] was 9 (E) μg/mL. The “MIC S. aureus GC 1131” value in test [2] (S. aureus GC 1131) came out at 8 µg/mL (≈ 20.9 µM). Further, the “MIC S. aureus GC 4543” value in test [2] (S. aureus GC 4543) was determined as 8 µg/mL (≈ 20.9 µM). In addition, in test [3] (E. faecalis GC 2242), the “MIC E. faecalis GC 2242” value stood at 8 µg/mL (≈ 20.9 µM). Also, the “MIC E. faecalis GC 4555” value in test [3] (E. faecalis GC 4555) is 32 µg/mL (≈ 83.7 µM). The “MIC S. pneumo GC 1894” value in test [4] was 0.5 µg/mL (≈ 1.31 µM). Further, the “MurA IC50” value in test [5] is listed as 17 (E) μg/mL. Moreover, the “MurB IC50” value in test [6] is on record as 11 (E) μg/mL. In addition, the “MurD IC50” value in test [7] is listed as >25 (E) μg/mL.
